# Test results: PMC7794844 (Molecules, 2020)
# Molecular target: SARS-CoV-2 spike S-RBD protein (Severe acute respiratory syndrome coronavirus 2, UniProt P0DTC2)
# Experiment: SPR affinity screen, compounds over immobilized S-RBD-mFc (CM5 chip)
# Details: target S-RBD, 1:1 binding model for steady state affinity
compound,measurement,value
c1ccc2c(CCNc3ccc(Nc4ccncc4)cc3)c[nH]c2c1,Kd,8.37 µM
